# Assay results from patent US6518317B1, “Antiviral agents” (priority 1997, dated 2003).
# Where two headings read alike, the source gives them in different places.
# Columns and labels:
# [1] = system: influenza virus A/PR/8/34 strain
# [2] = system: influenza virus A/PR/8/34 strain; remark: listed apart in the source
# [3] = system: influenza virus A/PR/8/34 strain; remark: listed apart in the source
# [4] = system: influenza virus A/PR/8/34 strain; remark: listed apart in the source
# [5] = system: Japanese encephalitis virus (JEV Ja0Ar-363-70 strain); test: Japanese encephalitis virus titer in Vero cells, cyclopentenone after infection
# [6] = system: influenza virus A/PR/8/34 strain; remark: listed apart in the source
# [7] = system: adenovirus type 5 (Adenoid 75; ATCC VR-5); test: Adenovirus hexon protein in HeLa cells, cyclopentenone before and after infection; type: cell-based; details: 20 μM or less
# [8] = system: influenza virus A/PR/8/34 strain; remark: listed apart in the source
# [9] = system: adenovirus of type 5 (Adenoid 75; ATCC VR-5); test: Adenovirus hexon protein in HeLa cells, cyclopentenone added after infection; type: cell-based; details: 20 μM or more
structure (smiles),measurement,setting,value
"O=C1C=CC(O)C1O (stereo not drawn) [cyclopentenone, 4,5-dihydroxy-2-cyclopenten-1-one]",titer of the virus,"[1]; 5 μM, day 1 after infection, after infection, m.o.i. 0.01",2.4 × 10^5 pfu/ml
same,titer of the virus,"[1]; 5 μM, day 2 after infection, after infection, m.o.i. 0.01",1.5 × 10^6 pfu/ml
same,titer of the virus,"[1]; 5 μM, day 3 after infection, after infection, m.o.i. 0.01",1.9 × 10^5 pfu/ml
same,titer of the virus compared with the control,"[1]; 10 μM or more, after infection, m.o.i. 0.01",apparently lowered
same,titer of the virus,"[1]; 10 μM, day 0 after infection, after infection, m.o.i. 0.01",<1.0 × 10^2 pfu/ml
same,titer of the virus,"[1]; 10 μM, day 1 after infection, after infection, m.o.i. 0.01",1.9 × 10^5 pfu/ml
same,titer of the virus,"[1]; 10 μM, day 2 after infection, after infection, m.o.i. 0.01",3.4 × 10^5 pfu/ml
same,titer of the virus,"[1]; 10 μM, day 3 after infection, after infection, m.o.i. 0.01",1.7 × 10^5 pfu/ml
same,titer of the virus,"[1]; 20 μM, day 0 after infection, after infection, m.o.i. 0.01",<1.0 × 10^2 pfu/ml
same,titer of the virus,"[1]; 20 μM, day 1 after infection, after infection, m.o.i. 0.01",1.2 × 10^5 pfu/ml
same,titer of the virus,"[1]; 20 μM, day 2 after infection, after infection, m.o.i. 0.01",1.0 × 10^6 pfu/ml
same,titer of the virus,"[1]; 20 μM, day 3 after infection, after infection, m.o.i. 0.01",7.2 × 10^5 pfu/ml
same,titer of the virus,"[1]; 40 μM, day 0 after infection, after infection, m.o.i. 0.01",<1.0 × 10^2 pfu/ml
same,titer of the virus,"[1]; 40 μM, day 1 after infection, after infection, m.o.i. 0.01",<1.0 × 10^2 pfu/ml
same,titer of the virus,"[1]; 40 μM, day 2 after infection, after infection, m.o.i. 0.01",<1.0 × 10^2 pfu/ml
same,titer of the virus,"[1]; 40 μM, day 3 after infection, after infection, m.o.i. 0.01",<1.0 × 10^2 pfu/ml
same,state of the MDCK cells,[1]; […],not eliminated but adhered
same,titer of the virus,"[2]; 5 μM, day 1 after infection, before infection, m.o.i. 0.01",4.0 × 10^5 pfu/ml
same,titer of the virus,"[2]; 5 μM, day 2 after infection, before infection, m.o.i. 0.01",8.0 × 10^5 pfu/ml
same,titer of the virus,"[2]; 5 μM, day 3 after infection, before infection, m.o.i. 0.01",9.6 × 10^4 pfu/ml
same,titer of the virus compared with the control,"[2]; 10 μM or more, before infection, m.o.i. 0.01",apparently lowered
same,titer of the virus,"[2]; 10 μM, day 0 after infection, before infection, m.o.i. 0.01",<1.0 × 10^2 pfu/ml
same,titer of the virus,"[2]; 10 μM, day 1 after infection, before infection, m.o.i. 0.01",2.0 × 10^5 pfu/ml
same,titer of the virus,"[2]; 10 μM, day 2 after infection, before infection, m.o.i. 0.01",7.2 × 10^5 pfu/ml
same,titer of the virus,"[2]; 10 μM, day 3 after infection, before infection, m.o.i. 0.01",2.4 × 10^5 pfu/ml
same,titer of the virus,"[2]; 20 μM, day 0 after infection, before infection, m.o.i. 0.01",<1.0 × 10^2 pfu/ml
same,titer of the virus,"[2]; 20 μM, day 1 after infection, before infection, m.o.i. 0.01",2.2 × 10^3 pfu/ml
same,titer of the virus,"[2]; 20 μM, day 2 after infection, before infection, m.o.i. 0.01",2.6 × 10^5 pfu/ml
same,titer of the virus,"[2]; 20 μM, day 3 after infection, before infection, m.o.i. 0.01",3.8 × 10^5 pfu/ml
same,titer of the virus,"[2]; 40 μM, day 0 after infection, before infection, m.o.i. 0.01",<1.0 × 10^2 pfu/ml
same,titer of the virus,"[2]; 40 μM, day 1 after infection, before infection, m.o.i. 0.01",4.0 × 10^2 pfu/ml
same,titer of the virus,"[2]; 40 μM, day 2 after infection, before infection, m.o.i. 0.01",1.9 × 10^5 pfu/ml
same,titer of the virus,"[2]; 40 μM, day 3 after infection, before infection, m.o.i. 0.01",5.6 × 10^5 pfu/ml
same,state of the MDCK cells,[2]; […],not eliminated but adhered
same,titer of the virus,"[3]; 5 μM, day 2 after infection, after infection, m.o.i. 0.001",8.8 × 10^4 pfu/ml
same,titer of the virus,"[3]; 5 μM, day 3 after infection, after infection, m.o.i. 0.001",2.6 × 10^4 pfu/ml
same,titer of the virus compared with the control,"[3]; 10 μM or more, after infection, m.o.i. 0.001",apparently lowered
same,titer of the virus,"[3]; 10 μM, day 0 after infection, after infection, m.o.i. 0.001",<1.0 × 10^2 pfu/ml
same,titer of the virus,"[3]; 10 μM, day 1 after infection, after infection, m.o.i. 0.001",<1.0 × 10^2 pfu/ml
same,titer of the virus,"[3]; 10 μM, day 2 after infection, after infection, m.o.i. 0.001",2.0 × 10^5 pfu/ml
same,titer of the virus,"[3]; 10 μM, day 3 after infection, after infection, m.o.i. 0.001",1.8 × 10^4 pfu/ml
same,titer of the virus,"[3]; 20 μM, day 0 after infection, after infection, m.o.i. 0.001",<1.0 × 10^2 pfu/ml
same,titer of the virus,"[3]; 20 μM, day 1 after infection, after infection, m.o.i. 0.001",<1.0 × 10^2 pfu/ml
same,titer of the virus,"[3]; 20 μM, day 2 after infection, after infection, m.o.i. 0.001",1.8 × 10^4 pfu/ml
same,titer of the virus,"[3]; 20 μM, day 3 after infection, after infection, m.o.i. 0.001",1.2 × 10^4 pfu/ml
same,titer of the virus,"[3]; 40 μM, day 0 after infection, after infection, m.o.i. 0.001",<1.0 × 10^2 pfu/ml
same,titer of the virus,"[3]; 40 μM, day 1 after infection, after infection, m.o.i. 0.001",<1.0 × 10^2 pfu/ml
same,titer of the virus,"[3]; 40 μM, day 2 after infection, after infection, m.o.i. 0.001",<1.0 × 10^2 pfu/ml
same,titer of the virus,"[3]; 40 μM, day 3 after infection, after infection, m.o.i. 0.001",<1.0 × 10^2 pfu/ml
same,state of the MDCK cells,[3]; […],not eliminated but adhered
same,titer of the virus compared with the control,"[4]; 20 μM or more, before and after infection, m.o.i. 0.01",apparently lowered
same,titer of the virus,"[4]; 20 μM, day 0 after infection, before and after infection, m.o.i. 0.01",<1.0 × 10^2 pfu/ml
same,titer of the virus,"[4]; 20 μM, day 1 after infection, before and after infection, m.o.i. 0.01",9.8 × 10^4 pfu/ml
same,titer of the virus,"[4]; 20 μM, day 2 after infection, before and after infection, m.o.i. 0.01",1.6 × 10^5 pfu/ml
same,titer of the virus,"[4]; 20 μM, day 3 after infection, before and after infection, m.o.i. 0.01",1.3 × 10^5 pfu/ml
same,titer of the virus,"[4]; 40 μM, day 0 after infection, before and after infection, m.o.i. 0.01",<1.0 × 10^2 pfu/ml
same,titer of the virus,"[4]; 40 μM, day 1 after infection, before and after infection, m.o.i. 0.01",<1.0 × 10^2 pfu/ml
same,titer of the virus,"[4]; 40 μM, day 2 after infection, before and after infection, m.o.i. 0.01",<1.0 × 10^2 pfu/ml
same,titer of the virus,"[4]; 40 μM, day 3 after infection, before and after infection, m.o.i. 0.01",<1.0 × 10^2 pfu/ml
same,state of the MDCK cells,[4]; […],not eliminated but adhered
same,numbers of the focus compared with the control,"[5]; 10 μM or more, added after infection",apparently decreased
same,titer of the virus,"[5]; 10 μM, 1 day after inoculation of virus, added after infection",6.0 × 10^3 pfu/ml
same,titer of the virus,"[5]; 10 μM, 2 days after inoculation of virus, added after infection",2.4 × 10^6 pfu/ml
same,titer of the virus,"[5]; 10 μM, 3 days after inoculation of virus, added after infection",4.4 × 10^6 pfu/ml
same,titer of the virus,"[5]; 20 μM, 1 day after inoculation of virus, added after infection",6.4 × 10^3 pfu/ml
same,titer of the virus,"[5]; 20 μM, 2 days after inoculation of virus, added after infection",1.9 × 10^6 pfu/ml
same,titer of the virus,"[5]; 20 μM, 3 days after inoculation of virus, added after infection",3.0 × 10^6 pfu/ml
same,titer of the virus,"[5]; 40 μM, 1 day after inoculation of virus, added after infection",0 pfu/ml
same,titer of the virus,"[5]; 40 μM, 2 days after inoculation of virus, added after infection",0 pfu/ml
same,titer of the virus,"[5]; 40 μM, 3 days after inoculation of virus, added after infection",0 pfu/ml
same,state of the Vero cells,[5]; […],not eliminated but adhered
same,titer of the virus,"[6]; 5 μM, day 2 after infection, before infection, m.o.i. 0.001",5.2 × 10^5 pfu/ml
same,titer of the virus,"[6]; 5 μM, day 3 after infection, before infection, m.o.i. 0.001",4.0 × 10^4 pfu/ml
same,titer of the virus compared with the control,"[6]; 10 μM or more, before infection, m.o.i. 0.001",apparently lowered
same,titer of the virus,"[6]; 10 μM, day 0 after infection, before infection, m.o.i. 0.001",<1.0 × 10^2 pfu/ml
same,titer of the virus,"[6]; 10 μM, day 1 after infection, before infection, m.o.i. 0.001",<1.0 × 10^2 pfu/ml
same,titer of the virus,"[6]; 10 μM, day 2 after infection, before infection, m.o.i. 0.001",6.2 × 10^5 pfu/ml
same,titer of the virus,"[6]; 10 μM, day 3 after infection, before infection, m.o.i. 0.001",8.6 × 10^4 pfu/ml
same,titer of the virus,"[6]; 20 μM, day 0 after infection, before infection, m.o.i. 0.001",<1.0 × 10^2 pfu/ml
same,titer of the virus,"[6]; 20 μM, day 1 after infection, before infection, m.o.i. 0.001",<1.0 × 10^2 pfu/ml
same,titer of the virus,"[6]; 20 μM, day 2 after infection, before infection, m.o.i. 0.001",5.0 × 10^5 pfu/ml
same,titer of the virus,"[6]; 20 μM, day 3 after infection, before infection, m.o.i. 0.001",1.1 × 10^5 pfu/ml
same,titer of the virus,"[6]; 40 μM, day 0 after infection, before infection, m.o.i. 0.001",<1.0 × 10^2 pfu/ml
same,titer of the virus,"[6]; 40 μM, day 1 after infection, before infection, m.o.i. 0.001",<1.0 × 10^2 pfu/ml
same,titer of the virus,"[6]; 40 μM, day 2 after infection, before infection, m.o.i. 0.001",4.4 × 10^3 pfu/ml
same,titer of the virus,"[6]; 40 μM, day 3 after infection, before infection, m.o.i. 0.001",8.0 × 10^3 pfu/ml
same,state of the MDCK cells,[6]; […],not eliminated but adhered
same,growth of the cells,[7],as same as in the section to which none of the cyclopentenone was added
same,titer of the virus,"[8]; 5 μM, day 2 after infection, before and after infection, m.o.i. 001",4.4 × 10^5 pfu/ml
same,titer of the virus,"[8]; 5 μM, day 3 after infection, before and after infection, m.o.i. 001",5.6 × 10^4 pfu/ml
same,titer of the virus compared with the control,"[8]; 10 μM or more, before and after infection, m.o.i. 001",apparently lowered
same,titer of the virus,"[8]; 10 μM, day 0 after infection, before and after infection, m.o.i. 001",<1.0 × 10^2 pfu/ml
same,titer of the virus,"[8]; 10 μM, day 1 after infection, before and after infection, m.o.i. 001",<1.0 × 10^2 pfu/ml
same,titer of the virus,"[8]; 10 μM, day 2 after infection, before and after infection, m.o.i. 001",4.8 × 10^5 pfu/ml
same,titer of the virus,"[8]; 10 μM, day 3 after infection, before and after infection, m.o.i. 001",2.8 × 10^4 pfu/ml
same,titer of the virus,"[8]; 20 μM, day 0 after infection, before and after infection, m.o.i. 001",<1.0 × 10^2 pfu/ml
same,titer of the virus,"[8]; 20 μM, day 1 after infection, before and after infection, m.o.i. 001",<1.0 × 10^2 pfu/ml
same,titer of the virus,"[8]; 20 μM, day 2 after infection, before and after infection, m.o.i. 001",3.2 × 10^4 pfu/ml
same,titer of the virus,"[8]; 20 μM, day 3 after infection, before and after infection, m.o.i. 001",2.8 × 10^4 pfu/ml
same,titer of the virus,"[8]; 40 μM, day 0 after infection, before and after infection, m.o.i. 001",<1.0 × 10^2 pfu/ml
same,titer of the virus,"[8]; 40 μM, day 1 after infection, before and after infection, m.o.i. 001",<1.0 × 10^2 pfu/ml
same,titer of the virus,"[8]; 40 μM, day 2 after infection, before and after infection, m.o.i. 001",<1.0 × 10^2 pfu/ml
same,titer of the virus,"[8]; 40 μM, day 3 after infection, before and after infection, m.o.i. 001",<1.0 × 10^2 pfu/ml
same,state of the MDCK cells,[8]; […],not eliminated but adhered
same,growth of the cells,[9],as same as that in the sections to which none of the cyclopentenone was added
